Results of unrelated studies side by side (data: NIAID ChemDB).

Shared fields: whole-cell or culture tests; species: HIV-1; endpoint: EC50

Lines come from different laboratories, so protocols vary.

smiles	strain or isolate	cell line	value
CCCCCCCCCCCCCCCCCC(=O)Nc1cc(S(=O)(=O)O)cc2cc(S(=O)(=O)O)cc(O)c12		CEM + CEM-SS	130 µM
C=C1[C@H](CO)OC[C@@H]1n1ccc(N)nc1=O			>100 µM
CCCCCCCCCNCC(O)C(O)C(OC1OC(CO)C(O)C(O)C1O)C(O)CO		CEM + CEM-SS	1000 µM
CC1(C)[C@@H](CO)CC[C@@]1(C)Cn1cnc2c(N)ncnc21		CEM + CEM/0	>100 µg/mL
CCN1CCCn2c(=S)[nH]c3cc(Br)cc1c32		CEM + CEM-SS	16.7 µM
[N-]=[N+]=N[C@H]1C[C@H](CO)S[C@H]1n1cnc2c(Cl)ncnc21		MT-4	>100 µM
CCCCCCCCCCCCCC(=O)Nc1ccc2cc(S(=O)(=O)O)cc(S(=O)(=O)O)c2c1		CEM + CEM-SS	150 µM
O=C(CN1c2c(-c3ccccc3)n[nH]c2-c2ccccc2S1(=O)=O)N/N=C/c1ccc(Cl)cc1		PBMC	6.5 µM
CNc1ncnc2c1ncn2[C@@H]1S[C@@H](CO)C[C@@H]1N=[N+]=[N-]		MT-4	>100 µM
COCc1nc(Nc2ccc(C#N)cc2)nc(Nc2c(C)cc(/C=C/C#N)cc2C)c1C(=O)NCCNC(C)=O	IIIB	MT4 CMV-EGFP	0.00562 µM
CC1CCn2c(=S)[nH]c3cccc(c32)N1		CEM + CEM-SS	44 µM
CC1(C)[C@@H](CO)CC[C@@]1(C)Cn1cnc2c(Cl)ncnc21		CEM + CEM/0	>14 µg/mL
Nc1ncnc2c1ncn2[C@H]1C[C@@]12C[C@@H]2CO		CEM + CEM-SS	>100 µM
O=c1c(N=Nc2ccc(S(=O)(=O)O)cc2)c(-c2ccccc2)[nH]n1-c1nc(-c2ccccc2)cs1	Clinical isolates		157.6 µM
Nc1ncnc2c1ncn2[C@H]1C[C@]12C[C@H]2CO	RF	CEM + CEM-SS	>100 µM
Nc1ncnc2c1ncn2[C@@H]1OCC(CO)=C1F			>100 µg/mL
COc1ccc(/C=N/NC(=O)CN2c3c(-c4ccccc4)n[nH]c3-c3ccccc3S2(=O)=O)c(OC)c1		PBMC	41 µM
COCc1nc(Nc2ccc(C#N)cc2)nc(Nc2c(C)cc(/C=C/C#N)cc2C)c1C(=O)NCc1ccncc1	IIIB	MT4 CMV-EGFP	0.00339 µM
[N-]=[N+]=N[C@@H]1C[C@@H](CO)S[C@@H]1n1cnc2c(Cl)ncnc21		MT-4	>100 µM
C=C1CN(S(=O)(=O)c2ccc(C)cc2)CCCN(Cc2ccccc2)CCCN(S(=O)(=O)c2ccc(C)cc2)C1	WEJO	PBMC	2 µM
COCc1nc(Nc2ccc(C#N)cc2)nc(Nc2c(C)cc(/C=C/C#N)cc2C)c1C(=O)NCCc1ccccn1	L1001+K103N	MT4 CMV-EGFP	0.0575 µM
Cc1cc(C)c(CS(=O)c2cccc[n+]2[O-])c(C)c1	IIIB	CEM	<40 µg/mL
CC1(C)[C@@H](CO)CC[C@@]1(C)Cn1nnc2c(=O)[nH]cnc21		CEM + CEM/0	>100 µg/mL
CCCCCCCCCCCCCCCCCC(=O)Nc1ccc2cc(S(=O)(=O)O)cc(S(=O)(=O)O)c2c1		CEM + CEM-SS	66 µM
C=C1[C@H](CO)OC[C@@H]1n1cnc2c(N)ncnc21			>100 µM
COCc1nc(Nc2ccc(C#N)cc2)nc(Oc2c(C)cc(/C=C(\C)C#N)cc2C)c1C(=O)NCc1ccncc1	K103N + Y181C	MT4 CMV-EGFP	0.0759 µM
Cc1cn([C@H]2C=C[C@@H](CO)O2)c(=O)[nH]c1=O	IIIB	CEM + CEM/0	0.16 µM
COCc1nc(Nc2ccc(C#N)cc2)nc(Nc2c(C)cc(/C=C/C#N)cc2C)c1C(=O)N1CCN(C)CC1	MDR	MT4 CMV-EGFP	9.55 µM
Cc1cccc(N2C(=O)CSC2c2c(Cl)cccc2Cl)n1		MT-4	0.248 µM
Cc1ccc(C)c(CS(=O)c2ccc(Cl)c[n+]2[O-])c1	IIIB	CEM	20 µg/mL
CC1(C)[C@@H](CO)CC[C@@]1(C)Cn1cc(I)c(=O)[nH]c1=O		CEM + CEM/0	>100 µg/mL
COCc1nc(Nc2ccc(C#N)cc2)nc(Nc2c(C)cc(/C=C/C#N)cc2C)c1C(=O)N(C)CCN(C)C	K103N + Y181C	MT4 CMV-EGFP	0.331 µM
Nc1ncnc2c1ncn2[C@H]1C[C@@]12C[C@H]2CO		CEM + CEM-SS	>100 µM
CCCCCCCCCCCCCCCC(=O)Nc1cc(S(=O)(=O)O)cc2cc(S(=O)(=O)O)cc(O)c12		CEM + CEM-SS	27 µM
O=C(CN1c2c(-c3ccccc3)n[nH]c2-c2ccccc2S1(=O)=O)N/N=C/c1ccccc1F		PBMC	>100 µM
Nc1ncnc2c1ncn2[C@H]1C[C@]12C[C@@H]2CO	RF	CEM + CEM-SS	>100 µM
Nc1ccn([C@H]2C[C@H]3OC[C@@H](O)[C@H]3O2)c(=O)n1		CEM + CEM-SS	>100 µM
Nc1nc2c(ncn2[C@H]2C[C@]23C[C@H]3CO)c(=O)[nH]1	RF	CEM + CEM-SS	>100 µM
Cc1cn([C@@H]2S[C@H](CO)C[C@@H]2N=[N+]=[N-])c(=O)[nH]c1=O		MT-4	>100 µM

Repeating the final 3 entries:

| smiles | strain or isolate | cell line | value |
|---|---|---|---|
| Nc1ccn([C@H]2C[C@H]3OC[C@@H](O)[C@H]3O2)c(=O)n1 |  | CEM + CEM-SS | >100 µM |
| Nc1nc2c(ncn2[C@H]2C[C@]23C[C@H]3CO)c(=O)[nH]1 | RF | CEM + CEM-SS | >100 µM |
| Cc1cn([C@@H]2S[C@H](CO)C[C@@H]2N=[N+]=[N-])c(=O)[nH]c1=O |  | MT-4 | >100 µM |

An empty or dashed field is not shown. ECn: concentration that inhibits the pathogen or its effect by n%.